Read-outs that look alike come from different tables or passages of the source.

The results in this text go back to patent USRE37781E1, “Substituted cyclic carbonyls and derivatives thereof useful as retroviral protease inhibitors” (DuPont Pharmaceuticals Company, priority 1991, dated 2002).

Test [1] concerns the target single-chain tethered dimer of HIV protease (Human immunodeficiency virus 1, UniProt P04585).
[2] abbreviates: read-out: HPLC K1, Table 2d, HIV protease inhibition, HPLC method.
Setting [3] is: read-out: HPLC K1, Table 2d, class symbols.
Setting [4] is: read-out: HPLC Ki, Table 1d, lower part.

Take `O=C1N(Cc2cccc(-c3cc[nH]n3)c2)[C@H](Cc2ccccc2)[C@H](O)[C@@H](O)[C@@H](Cc2ccccc2)N1Cc1ccc2[nH]nnc2c1`: in the test on HIV-1 (RF) in MT-2 cells (Table 2d, HIV RNA assay), the IC90 entry is on record as “+++ (+++=<10 μg/mL)”. Also, in test [1] (setting [2]), the Ki was under 10 nM. With `N=C(N)c1cccc(CN2C(=O)N(Cc3cccc(C(N)=O)c3)[C@H](Cc3ccccc3)[C@H](O)[C@@H](O)[C@H]2Cc2ccccc2)c1`, the IC90 result in the test on HIV-1 (RF) in MT-2 cells (Table 2d, class symbols, tested form: acetate) is on record as “+++ (+++=<10 μg/mL)”. The Ki in test [1] (read-out: HPLC K1, Table 2d, class symbols, tested form: acetate) is under 10 nM. In test [1] (HIV protease inhibition, class symbols), `O=C1N(CCC23CC4CC(CC(C4)C2)C3)[C@H](Cc2ccccc2)[C@H](O)[C@@H](O)[C@@H](Cc2ccccc2)N1CCC12CC3CC(CC(C3)C1)C2` displayed a Ki of 10 to 1000 nM. For the compound `CC(O)CCCCN1C(=O)N(Cc2ccc3ccccc3c2)[C@H](Cc2ccccc2)[C@H](O)[C@@H](O)[C@H]1Cc1ccccc1` (stereo partly shown), the IC90 result with HIV-1 (RF) in MT-2 cells (Table 2d, class symbols) is reported as “+++ (+++=<10 μg/mL)”. In addition, in test [1] (setting [3]), the Ki is under 10 nM. As for `Nc1nc(-c2cccc(CN3C(=O)N(CC4CC4)[C@H](Cc4ccccc4)[C@H](O)[C@@H](O)[C@H]3Cc3ccccc3)c2)cs1`, the IC90 result in the test on HIV-1 (RF) in MT-2 cells (Table 2d, HIV RNA assay) is “+++ (+++=<10 μg/mL)”. Also, the Ki in test [1] (setting [2]) was under 10 nM. With `CNC(=O)OCCCCCCN1C(=O)N(CCCCCCO)[C@H](Cc2ccccc2)[C@H](O)[C@@H](O)[C@H]1Cc1ccccc1`, the Ki in test [1] (setting [3]) is under 10 nM. Turning to `O=C(NC12CC3CC(CC(C3)C1)C2)Oc1cccc(CN2C(=O)N(Cc3cccc(O)c3)[C@H](Cc3ccccc3)[C@H](O)[C@@H](O)[C@H]2Cc2ccccc2)c1`, the IC90 result in the test on HIV-1 (RF) in MT-2 cells (Table 2d, class symbols) was “+++ (+++=<10 μg/mL)”. In addition, the Ki in test [1] (setting [3]) lay within 10 to 1000 nM.

`NNC(=O)c1cccc(CN2C(=O)N(CC3CC3)[C@H](Cc3ccccc3)[C@H](O)[C@@H](O)[C@H]2Cc2ccccc2)c1`: the IC90 entry with HIV-1 (RF) in MT-2 cells (Table 2d, HIV RNA assay) is given as “+++ (+++=<10 μg/mL)”. Moreover, in test [1] (setting [2]), the Ki was under 10 nM. With `O=C(NC12CC3CC(CC(C3)C1)C2)Oc1cccc(CN2C(=O)N(Cc3cccc(OC(=O)NC45CC6CC(CC(C6)C4)C5)c3)[C@H](Cc3ccccc3)[C@H](O)[C@@H](O)[C@H]2Cc2ccccc2)c1`, the IC90 entry in the test on HIV-1 (RF) in MT-2 cells (Table 2d, class symbols) is listed as “+++ (+++=<10 μg/mL)”. In addition, the Ki in test [1] (setting [3]) is over 1000 nM. Turning to `O=C1N(Cc2ccc(CF)cc2)[C@H](Cc2ccccc2)[C@H](O)[C@@H](O)[C@@H](Cc2ccccc2)N1Cc1ccc(CF)cc1`, the IC90 entry in the test with HIV-1 (RF) in MT-2 cells (Table 2i) is reported as “+++ (+++=<10 μg/mL)”. In test [1] (read-out: HPLC Ki, Table 2i), the Ki was under 10 nM. With `O=C1N(Cc2ccccc2)[C@H](Cc2ccc(OCCN3CCOCC3)cc2)[C@H](O)[C@@H](O)[C@@H](Cc2ccc(OCCN3CCOCC3)cc2)N1Cc1ccccc1`, in test [1] (read-out: HPLC Ki, Table 2i), the Ki was under 10 nM.

As for `O=C1N(Cc2ccc(CO)cc2)[C@H](Cc2ccccc2)[C@H](O)[C@@H](O)[C@@H](Cc2ccccc2)N1Cc1ccc2[nH]nnc2c1`, the IC90 result with HIV-1 (RF) in MT-2 cells (Table 2d, HIV RNA assay) is recorded as “+++ (+++=<10 μg/mL)”. Further, the Ki in test [1] (setting [2]) is under 10 nM. On to `O=C(NO)c1cccc(CN2C(=O)N(Cc3cccc(C(=O)NO)c3)[C@H](Cc3ccccc3)[C@H](O)[C@@H](O)[C@H]2Cc2ccccc2)c1`, for which the IC90 result in the test on HIV-1 (RF) in MT-2 cells (Table 2d, class symbols) is “+ (+=>100 μg/mL)”. Besides, in test [1] (setting [3]), the Ki is under 10 nM. For `Cc1nc(-c2cccc(CN3C(=O)N(Cc4cccc(-c5noc(C)n5)c4)[C@H](Cc4ccccc4)[C@H](O)[C@@H](O)[C@H]3Cc3ccccc3)c2)no1`, the IC90 result in the test on HIV-1 (RF) in MT-2 cells (Table 2i) is on record as “+++ (+++=<10 μg/mL)”. Further, in test [1] (read-out: HPLC Ki, Table 2i), the Ki is under 10 nM. As for `O=C1N(Cc2cccc(CO)c2)[C@H](Cc2ccccc2)C[C@@H](O)[C@@H](Cc2ccccc2)N1Cc1cccc(CO)c1`, the “Mass Spec M + H (class symbols printed in this column)” value in the test on HIV-1 (RF) in MT-2 cells (Table 1d, lower part) was “+++ (+++=<10 μg/mL)”. For the same compound, in test [1] (setting [4]), the Ki was under 10 nM.

Regarding `Cc1ccc(S(=O)(=O)NCCCCCN2C(=O)N(CCCCCNS(=O)(=O)c3ccc(C)cc3)[C@H](Cc3ccccc3)[C@H](O)[C@@H](O)[C@H]2Cc2ccccc2)cc1`, the IC90 entry in the test on HIV-1 (RF) in MT-2 cells (Table 2d, HIV RNA assay) is “++/+ (The ++/+ is used in the cases where an IC90 was determined to be >50 μg/mL)”. Also, in test [1] (setting [2]), the Ki was 10 to 1000 nM. For `O=C1N(Cc2ccccc2)[C@H](Cc2cn(Cc3ccccc3)c3ccccc23)[C@H](O)[C@@H](O)[C@@H](Cc2cn(Cc3ccccc3)c3ccccc23)N1Cc1ccccc1`, in test [1] (read-out: K4 HPLC, Table 2e), the Ki is 10 to 1000 nM. For the compound `O=C1N(Cc2ccc3ccccc3c2)C(Cc2ccccc2)CC(OCO)C(Cc2ccccc2)N1Cc1ccc2ccccc2c1` (stereo not shown), in test [1] (setting [4]), the Ki is under 10 nM. Consider `CNS(=O)(=O)OCCCCCCN1C(=O)N(CCCCCCO)[C@H](Cc2ccccc2)[C@H](O)[C@@H](O)[C@H]1Cc1ccccc1`, for which the IC90 entry in the test on HIV-1 (RF) in MT-2 cells (Table 2d, class symbols) is on record as “+++ (+++=<10 μg/mL)”. Further, in test [1] (setting [3]), the Ki lay within 10 to 1000 nM. In the case of `O=C1N(Cc2cccc(B(O)O)c2)[C@H](Cc2ccccc2)[C@H](O)[C@@H](O)[C@@H](Cc2ccccc2)N1Cc1cccc(B(O)O)c1`, in the test on HIV-1 (RF) in MT-2 cells (Table 2d, class symbols), the IC90 entry is listed as “+++ (+++=<10 μg/mL)”. Also, the Ki in test [1] (setting [3]) is under 10 nM. Take `CN(C)CC(=O)Nc1cccc(CN2C(=O)N(Cc3ccc(CO)cc3)[C@H](Cc3ccccc3)[C@H](O)[C@@H](O)[C@H]2Cc2ccccc2)c1`: the IC90 result in the test with HIV-1 (RF) in MT-2 cells (Table 2d, class symbols, tested form: HCl) is “+++ (+++=<10 μg/mL)”. In test [1] (read-out: HPLC K1, Table 2d, class symbols, tested form: HCl), the Ki is under 10 nM. For `O=C(NCCN1CCCC1)c1cccc(CN2C(=O)N(CC3CC3)[C@H](Cc3ccccc3)[C@H](O)[C@@H](O)[C@H]2Cc2ccccc2)c1`, the IC90 entry with HIV-1 (RF) in MT-2 cells (Table 2d, HIV RNA assay) is listed as “+++ (+++=<10 μg/mL)”. The Ki in test [1] (setting [2]) was under 10 nM. For the compound `O=C1N(Cc2ccc(O)cc2)[C@H](Cc2ccccc2)[C@H](O)[C@@H](O)[C@@H](Cc2ccccc2)N1Cc1ccc(O)c(CO)c1`, the IC90 result with HIV-1 (RF) in MT-2 cells (Table 2d, class symbols) was “++ (++=10 to 100 μg/mL)”. Besides, the Ki in test [1] (setting [3]) is under 10 nM. On to `O=C1N[C@H](Cc2ccccc2)[C@H](O)[C@@H](O)[C@@H](Cc2ccccc2)N1Cc1cccc(-c2cc[nH]n2)c1`, for which, in the test on HIV-1 (RF) in MT-2 cells (Table 2d, HIV RNA assay, tested form: HCl), the IC90 result was “+++ (+++=<10 μg/mL)”. Besides, the Ki in test [1] (read-out: HPLC K1, Table 2d, HIV protease inhibition, HPLC method, tested form: HCl) is under 10 nM. As to `O=C1N(Cc2ccoc2)[C@H](Cc2ccccc2)[C@H](O)[C@@H](O)[C@@H](Cc2ccccc2)N1Cc1coc(C=NO)c1`, the IC90 entry in the test with HIV-1 (RF) in MT-2 cells (HIV RNA assay, HIV-1 infected MT-2 cells, Table 2d) was “+++ (+++=<10 μg/mL)”. Further, the Ki in test [1] (read-out: HPLC K1, HIV protease inhibition, HPLC method, Table 2d) is under 10 nM. With `CN(C)C=CC(=O)c1cccc(CN2C(=O)N(Cc3cccc(C(=O)C=CN(C)C)c3)[C@H](Cc3ccccc3)[C@H](O)[C@@H](O)[C@H]2Cc2ccccc2)c1`, the IC90 result in the test on HIV-1 (RF) in MT-2 cells (Table 2d, HIV RNA assay) is on record as “+++ (+++=<10 μg/mL)”. Also, the Ki in test [1] (setting [2]) is under 10 nM. As for `OCc1ccc(CN2C(=S)N(Cc3ccc(CO)cc3)[C@H](Cc3ccccc3)[C@H](O)[C@@H](O)[C@H]2Cc2ccccc2)cc1`, the IC90 result in the test on HIV-1 (RF) in MT-2 cells (Table 2q) was “+++ (+++=<10 μg/mL)”. For the same compound, the Ki in test [1] (read-out: HPLC Ki, Table 2q) was under 10 nM.

For the compound `O=C(O)c1cccc(CN2C(=O)N[C@H](Cc3ccccc3)[C@H](O)[C@@H](O)[C@H]2Cc2ccccc2)c1`, the IC90 entry with HIV-1 (RF) in MT-2 cells (Table 2d, class symbols) is given as “+ (+=>100 μg/mL)”. The Ki in test [1] (setting [3]) was under 10 nM. For `NC(=NO)c1cc(CN2C(=S)N(Cc3ccc(F)c(C(N)=NO)c3)[C@H](Cc3ccccc3)[C@H](O)[C@@H](O)[C@H]2Cc2ccccc2)ccc1F`, in the test on HIV-1 (RF) in MT-2 cells (Table 2q), the IC90 entry is “+++ (+++=<10 μg/mL)”. Besides, in test [1] (read-out: HPLC Ki, Table 2q), the Ki was under 10 nM. As for `CN1C(=O)N(Cc2cccc(C(=O)NCCN3CCCC3)c2)[C@H](Cc2ccccc2)[C@H](O)[C@@H](O)[C@H]1Cc1ccccc1`, in test [1] (setting [2]), the Ki fell in the range of 10 to 1000 nM. As to `O=S1(=O)N(CCCCCO)[C@H](Cc2ccccc2)[C@H](O)[C@@H](O)[C@@H](Cc2ccccc2)N1CCCCCO`, in the test on HIV-1 (RF) in MT-2 cells (Table 2m), the IC90 result is “+++ (+++=<10 μg/mL)”. For the same compound, in test [1] (read-out: HPLC Ki, Table 2m), the Ki is under 10 nM.

Consider `C[C@H](NC(=O)OCc1ccccc1)C(=O)Nc1cccc(CN2C(=O)N(Cc3cccc(NC(=O)[C@H](C)NC(=O)OCc4ccccc4)c3)[C@H](Cc3ccccc3)[C@H](O)[C@@H](O)[C@H]2Cc2ccccc2)c1`, for which, in test [1] (setting [3]), the Ki was under 10 nM.

As for `C=C(CO)CN1C(=O)N(CC(=C)CO)[C@H](Cc2ccccc2)[C@H](O)[C@@H](O)[C@H]1Cc1ccccc1`, in test [1] (setting [2]), the Ki was over 1000 nM.
